# Test results: PubChem BioAssay AID1448 (The Scripps Research Institute Molecular Screening Center, 2008)
# Protein sequences, listed by entry. Tags and fused reporters are not part of them. Lines headed by an entry give the natural chain unless they say otherwise; changes in a name come on top.
# UniProt Q8TDD5: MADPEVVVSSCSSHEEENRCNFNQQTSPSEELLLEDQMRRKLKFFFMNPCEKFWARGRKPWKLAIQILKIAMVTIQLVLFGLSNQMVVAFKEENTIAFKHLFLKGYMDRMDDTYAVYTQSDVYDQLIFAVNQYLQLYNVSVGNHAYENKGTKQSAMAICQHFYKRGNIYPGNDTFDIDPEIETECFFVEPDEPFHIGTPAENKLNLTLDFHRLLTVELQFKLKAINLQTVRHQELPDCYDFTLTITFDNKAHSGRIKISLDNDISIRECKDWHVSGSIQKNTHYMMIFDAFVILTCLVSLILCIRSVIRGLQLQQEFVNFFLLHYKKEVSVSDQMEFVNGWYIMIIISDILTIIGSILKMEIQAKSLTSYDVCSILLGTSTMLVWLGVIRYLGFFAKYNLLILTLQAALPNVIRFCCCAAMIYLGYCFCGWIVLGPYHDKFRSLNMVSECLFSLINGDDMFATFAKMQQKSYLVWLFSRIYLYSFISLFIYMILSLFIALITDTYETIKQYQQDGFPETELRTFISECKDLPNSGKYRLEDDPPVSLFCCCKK
# This is a selection; strong and weak results do not stand in their true shares. Active and inactive are the calls of the source.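 Rule for the calls: active = activation above its plate's cutoff, the mean activation of the plate's test wells plus 3 SD (cut at about 12% in these data); inactive = the rest.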
# Biological target: Mucolipin-3 (Homo sapiens) (UniProt Q8TDD5)
# Experiment: human TRPML3 channel agonists, primary screen, cell-based, HEK293 TRPML3-YFP, Fluo-8 calcium fluorescence, 3 µM (AID 1448);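 note: 0% = DMSO only wells and 100% = carbachol wells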
# Settings: at 3 µM, hits give high values, 100% = the carbachol control signal
# Procedure, shortened: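 Material: TRPML3-YFP stable HEK293 cells | Dosing: One concentration, 3 µM nominal, 0.3% DMSO | Timing: 125 s total fluorescence read per well | Technique: Fluo-8 calcium dye fluorescence, ex 470-495, em 515-575 nm | Measure: Percent activation from peak-to-basal fluorescence ratio, scaled between DMSO and carbachol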
row,Structure (SMILES),activation
1,Cc1ccccc1OP(=O)(Nc1ccccn1)Oc1ccccc1C,inactive: -0.59%
2,O=P(Nc1ccccn1)(c1ccc(Br)cc1)c1ccc(Br)cc1,inactive: -1.3%
3,O=P(Nc1nc2ccccc2s1)(c1ccccc1)c1ccccc1,inactive: -0.46%
4,O=[As](O)(c1ccccc1)c1ccc(O)cc1,inactive: 0.39%
5,CC(=O)NC(SC(=S)N(C)C)C(Cl)(Cl)Cl (configuration not stated),inactive: 1.16%
6,O=[N+]([O-])c1ncn(CCn2cnc([N+](=O)[O-])n2)n1,inactive: 0.86%
7,O=C(OC1CN2CCC1CC2)c1cccc(Cl)c1 (configuration not stated),inactive: 0.81%
8,C(Cc1nn[nH]n1)Cc1nn[nH]n1,inactive: 1.04%
9,Nc1ccc([As](=O)(O)c2ccc([N+](=O)[O-])cc2)cc1,inactive: 0.51%
10,O=P(Nc1nccs1)(c1ccccc1)c1ccccc1,inactive: -0.36%
11,CC(C)C(=O)NC(Sc1ccccc1)C(Cl)(Cl)Cl (configuration not stated),inactive: -0.85%
12,c1nnnn1CCn1cnnn1,inactive: 0.87%
13,O=P1(Nc2ccccn2)COc2ccccc2OC1,inactive: 0.84%
14,CCOP(=O)(Nc1ccc(C)cn1)OCC,inactive: 0.73%
15,CC(C)(C)C(=O)NC(Sc1ncccn1)C(Cl)(Cl)Cl (configuration not stated),inactive: 0.64%
16,Clc1n[nH]nc1-c1nn[nH][15n]1,inactive: 0.33%
17,CN(C(=O)Cc1ccc(Cl)c(Cl)c1)[C@@H]1CCCC[C@H]1N1CCCC1,inactive: 0.97%
18,CC(C)/C=N\N=C(\N)N[N+](=O)[O-],inactive: 0.7%
19,CC1(CBr)Cn2c(nc3ccccc3c2=O)S1 (configuration not stated),inactive: 0.28%
20,O=[As](O)(c1ccccc1Br)c1ccccc1Br,inactive: 0.67%
21,CC1CCC(C(C)C)C(OP(=O)(Nc2ccccn2)c2ccccc2)C1 (configuration not stated),inactive: 0.04%
22,Cc1nn(-c2ccccc2)c2c1P(=O)(N1CCOCC1)N(C)C(c1ccccc1)=N2 (configuration not stated),inactive: 0.72%
23,CN(C)C1(CNC(=O)c2ccc(S(C)(=O)=O)cc2)CCCCC1,inactive: 0.89%
24,O=C(/C=C/c1ccccc1)OC1CN2CCC1CC2 (configuration not stated),inactive: -0.69%
25,O=P1(Nc2ncccn2)COc2ccccc2OC1,inactive: 0.57%
26,Nc1cccc([As](=O)(O)c2ccccc2)c1,inactive: 0.65%

row,Structure (SMILES),activation
1,Cc1ccc(OCC(=O)OC2CN3CCC2CC3)cc1 (configuration not stated),inactive: -0.13%
2,O=[As](O)(c1cccs1)c1cccs1,inactive: 1.12%
3,O=P1(Nc2ccc(Br)cn2)COc2ccccc2OC1,inactive: 0.34%
4,O=P(Nc1nccs1)(Oc1ccccc1)Oc1ccccc1,inactive: 0.63%
5,O=P(Nc1nccs1)(c1ccccc1)c1nc2ccccc2s1 (configuration not stated),inactive: 0.88%
6,CCOP1(=S)c2c(C)nn(CCC#N)c2N=C(c2ccccc2F)N1C (configuration not stated),inactive: 0.55%
7,CS(=O)(=O)c1cc([N+](=O)[O-])c2no[n+]([O-])c2c1,inactive: 0.88%
8,O=C(O)COc1ccc([As](=O)(O)O)cc1[N+](=O)[O-],inactive: -0.69%
9,Nc1ccccc1[As](=O)(O)c1ccccc1,inactive: 0.53%
10,CCOP1(=S)c2c(C)nn(CCC#N)c2N=C(c2ccc(F)cc2)N1C (configuration not stated),inactive: -0.47%
11,O=[N+]([O-])c1ccc2c(c1)nnn2O,inactive: 0.61%
12,O=C(OC1CN2CCC1CC2)c1ccc(Cl)cc1 (configuration not stated),inactive: 0.38%
13,O=[As](O)(O)c1cccnc1,inactive: 0.41%
14,COc1cc(C(=O)NCC2(N3CCOCC3)CCCCC2)cc(Cl)c1OC(C)C,inactive: 0.78%
15,Cc1cccc(OCC(=O)OC2CN3CCC2CC3)c1 (configuration not stated),inactive: 0.31%
16,O=[As](O)(c1cccc(O)c1)c1cccc(O)c1,inactive: 0.89%
17,Cc1ccc(NCCc2c([N+](=O)[O-])cc([N+](=O)[O-])cc2[N+](=O)[O-])cc1,inactive: 0.69%
18,Nc1cccc2c([As](=O)(O)O)cccc12,inactive: 2.25%
19,CCCOP(=S)(Nc1nc(N)cc(=O)[nH]1)OCCC,inactive: 1.02%
20,CCOP(=O)(Nc1cccc2ccccc12)OCC,inactive: 0.41%
21,COc1cc(C2NCCC3(OCCO3)C2(C)C)cc(OC)c1OC (configuration not stated),inactive: -0.08%
22,Cc1c2c(nc3ccccc13)SC(C(Cl)Cl)C2 (configuration not stated),inactive: -0.3%
23,Cc1cc(=O)[nH]c(N[N+](=O)[O-])n1,inactive: 0.97%
24,O=C(OC1CN2CCC1CC2)C12CC3CC(CC(C3)C1)C2 (configuration not stated),inactive: 0.89%
25,COc1cc(I)ccc1[As](=O)(O)O,inactive: 1.12%
26,COc1ccc2nc(NP(=O)(c3ccccc3)c3ccccc3)sc2c1,inactive: -0.84%
